# Source: patent US20230287088A1 (BIONTECH, published 2023)
# Molecular target: T1, Mouse-Fc-tagged SARS-CoV2 S1-RBD (Sino Biologicals) recombinant protein (SARS-CoV-2, UniProt P0DTC2 319-541)
# T1 construct: domain: S1-RBD
# Assay: […] row Mean of six measurements (StDev 0.79)
binder,measurement,value
"P043.A.00095.D06 (protein sample ID 470) (antibody, V domains shown, also called S1 targeting antibody 470; anti-S1-antibody 470) VH: QEQLEESGGDLVKPEGSLTLTCTASGFSFSSNYWICWVRQAPGKGLEWIGCIYIGSGDTYYASWAKGRFTISKTSSTTVTLQMTSLTAADTATYFCARSYTPGSYYNMNLWGPGTLVTVSS VL: DVVMTQTPSSVSAAVGGTVTINCQASQQISNELSWYQQKSGQPPKLLIYDASDLASGVPSRFKGSGSGTEFTLTISDLESADAATYYCQSTGGASSDGNAFGGGTEVVVK",koff,7.68e-05 s⁻¹
